Replication capacity of HIV-1 mutants, Gag

Values reported by Al-Mawsawi et al. 2014 (doi:10.1186/s12977-014-0124-6).

Protein: Gag of HIV-1 NL4-3, numbered from its first residue. Gag is numbered as the whole polyprotein.
Effects on overlapping genes or RNA elements are not listed.

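Random point mutant libraries of HIV-1 NL4-3, one for each of seven fragments, were passaged in CEM T lymphocytes. The RC index is the frequency of a change after passage round 2 divided by its frequency in the plasmid library.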

A higher RC index is a better tolerated change; approximate classes are lethal up to 0.1, attenuated to 0.2, tolerated above. A change reads original residue, position, new residue. Input reads are the counts in the plasmid library.

| change | base | region | input reads | RC index |
|---|---|---|---|---|
| E12V | A824T | MA | 208 | 0.00929 |
| D14E | T831A | MA | 203 | 0.0476 |
| E17G | A839G | MA | 821 | 0.0579 |
| I34T | T890C | MA | 206 | 0.0590 |
| S38I | G902T | MA | 126 | 0.129 |
| R39M | G905T | MA | 239 | 0.0763 |
| L41I | C910A | MA | 299 | 0.0610 |
| P48H | C932A | MA | 608 | 0.0700 |
| P66R | C986G | MA | 91 | 0.0353 |
| S72L | C1004T | MA | 209 | 0.215 |
| Y86D | T1045G | MA | 41 | 0.157 |
| V88A | T1052C | MA | 210 | 0.0765 |
| Q90L | A1058T | MA | 458 | 0.0561 |
| R91S | G1062C | MA | 137 | 0.0235 |
| E106G | A1106G | MA | 408 | 0.0788 |
| E107D | G1110C | MA | 62 | 0.207 |
| K113N | A1128T | MA | 265 | 0.0401 |
| D121A | A1151C | MA | 48 | 0.0915 |
| T122I | C1154T | MA | 300 | 0.139 |
| Q130H | A1179T | MA | 404 | 0.0163 |
| Y132F | A1184T | MA | 279 | 0.0551 |
| I134L | A1189T | CA | 364 | 0.0241 |
| V135A | T1193C | CA | 226 | 0.117 |
| N137K | C1200A | CA | 56 | 0.157 |
| L138H | T1202A | CA | 129 | 0.0851 |
| L138R | T1202G | CA | 33 | 0.0666 |
| G140R | G1207A | CA | 238 | 0.138 |
| Q141H | A1212T | CA | 231 | 0.0475 |
| S148L | C1232T | CA | 164 | 0.241 |
| T151S | C1241G | CA | 54 | 0.0813 |
| V156L | G1255C | CA | 74 | 0.0594 |
| K157R | A1259G | CA | 282 | 0.0344 |
| E161G | A1271G | CA | 219 | 0.0568 |
| P166L | C1286T | CA | 182 | 0.0976 |
| E167G | A1289G | CA | 160 | 0.0333 |
| V168I | G1291A | CA | 451 | 0.138 |
| I169L | A1294T | CA | 328 | 0.0596 |
| I169T | T1295C | CA | 278 | 0.0511 |
| P170T | C1297A | CA | 58 | 0.153 |
| G178R | G1321A | CA | 167 | 0.213 |
| A179T | G1324A | CA | 564 | 0.107 |
| A179D | C1325A | CA | 140 | 0.101 |
| D183N | G1336A | CA | 180 | 0.306 |
| D183G | A1337G | CA | 208 | 0.0512 |
| V191G | T1361G | CA | 33 | 0.484 |
| H194Y | C1369T | CA | 324 | 0.115 |
| A197S | G1378T | CA | 209 | 0.0595 |
| Q199L | A1385T | CA | 337 | 0.0316 |
| A210E | C1418A | CA | 219 | 0.0982 |
| I223F | A1456T | CA | 283 | 0.0532 |
| P225S | C1462T | CA | 1033 | 0.0832 |
| Q227L | A1469T | CA | 584 | 0.0515 |
| E230V | A1478T | CA | 241 | 0.0535 |
| S234I | G1490T | CA | 175 | 0.111 |
| S234R | T1491A | CA | 388 | 0.0277 |
| G238R | G1501A | CA | 166 | 0.142 |
| S241I | G1511T | CA | 237 | 0.0453 |
| L243P | T1517C | CA | 202 | 0.170 |
| E245K | G1522A | CA | 173 | 0.174 |
| Q246P | A1526C | CA | 319 | 0.0545 |
| I247L | A1528C | CA | 268 | 0.0162 |
| I256S | T1556G | CA | 49 | 0.134 |
| V258E | T1562A | CA | 315 | 0.0279 |
| E260V | A1568T | CA | 183 | 0.0480 |
| W265G | T1582G | CA | 50 | 0.176 |
| I267T | T1589C | CA | 362 | 0.133 |
| N271D | A1600G | CA | 238 | 0.0461 |
| M276V | A1615G | CA | 424 | 0.0518 |
| P279S | C1624T | CA | 375 | 0.181 |
| P279H | C1625A | CA | 370 | 0.142 |
| G288E | G1652A | CA | 449 | 0.198 |
| K290E | A1657G | CA | 1053 | 0.0528 |
| Q308H | A1713C | CA | 56 | 0.0404 |
| T318I | C1742T | CA | 313 | 0.101 |
| T320N | C1748A | CA | 62 | 0.0365 |
| N325S | A1763G | CA | 228 | 0.0595 |
| A326G | C1766G | CA | 80 | 0.0566 |
| M346L | A1825T | CA | 141 | 0.0415 |
| G352V | G1844T | CA | 143 | 0.114 |
| V353M | G1846A | CA | 112 | 0.240 |
| G355R | G1852A | CA | 326 | 0.141 |
| H358Q | T1863A | CA | 137 | 0.0102 |
| K359R | A1865G | CA | 487 | 0.0143 |
| V362D | T1874A | CA | 299 | 0.0699 |
| A364P | G1879C | p2 | 77 | 0.145 |
| E365Q | G1882C | p2 | 78 | 0.0357 |
| M367R | T1889G | p2 | 90 | 0.0620 |
| S368G | A1891G | p2 | 307 | 0.0590 |
| V370E | T1898A | p2 | 504 | 0.0111 |
| M377V | A1918G | p2 | 265 | 0.0356 |
| I378L | A1921T | NC p7 | 234 | 0.0269 |
| G381C | G1930T | NC p7 | 263 | 0.0837 |
| G396S | G1975A | NC p7 | 163 | 0.193 |
| G396A | G1976C | NC p7 | 63 | 0.0749 |
| K415N | A2034T | NC p7 | 241 | 0.0352 |
| K418T | A2042C | NC p7 | 93 | 0.160 |
| G435W | G2092T | p1 | 260 | 0.130 |
| K436R | A2096G | p1 | 732 | 0.0666 |

The first 11 entries again:

* E12V (base A824T, region MA, input reads 208) = 0.00929
* D14E (base T831A, region MA, input reads 203) = 0.0476
* E17G (base A839G, region MA, input reads 821) = 0.0579
* I34T (base T890C, region MA, input reads 206) = 0.0590
* S38I (base G902T, region MA, input reads 126) = 0.129
* R39M (base G905T, region MA, input reads 239) = 0.0763
* L41I (base C910A, region MA, input reads 299) = 0.0610
* P48H (base C932A, region MA, input reads 608) = 0.0700
* P66R (base C986G, region MA, input reads 91) = 0.0353
* S72L (base C1004T, region MA, input reads 209) = 0.215
* Y86D (base T1045G, region MA, input reads 41) = 0.157

Base changes are numbered along pNL4-3. Since each clone held several changes (about five per kb), neutral changes can read low. An index over 1, which the authors read as above wild type, was rare (1.9% of all changes in the genome).